From US11111484B2, “Streptococcus bacteriophage lysins for detection and treatment of gram positive bacteria” (priority 2011, dated 2021)

Columns and labels:
[1] = system: MRSA strains (Strain 245, 223, 926 and 932); assay: log kill comparison PlySs2 versus vancomycin; conditions: MHB, up to 6 hours; vancomycin 1 μg/ml
[2] = system: MRSA strains (Strain 245, 223, 926 and 932); assay: MIC of MRSA strains used for log kill comparison; conditions: MRSA strains 245, 223, 926 and 932

B1: PlySs2: Streptococcus suis prophage lysin, SEQ ID NO:3; N-terminal CHAP domain and C-terminal SH3-type 5 domain (protein, listed as Streptococcus suis)
chain: MTTVNEALNNVRAQVGSGVSVGNGECYALASWYERMISPDATVGLGAGVGWVSGAIGDTISAKNIGSSYNWQANGWTVSTSGPFKAGQIVTLGATPGNPYGHVVIVEAVDGDRLTILEQNYGGKRYPVRNYYSAASYRQQVVHYITPPGTVAQSAPNLAGSRSYRETGTMTVTVDALNVRRAPNTSGEIVAVYKRGESFDYDTVIIDVNGYVWVSYIGGSGKRNYVATGATKDGKRFGNAWGTFK
log kill versus vancomycin [1]: rapid and effective kill with enhanced activity versus standard-of-care antibiotic vancomycin
MIC [2]: approx 32 μg/ml
